Experimental data as given in BindingDB's records for doi:10.1021/jm970374b (1998).

Biological target: Neuraminidase (Influenza A virus (strain A/Singapore/1/1957 H2N2), UniProt Q6XUE4)

SMILES | IC50
CC(=O)N[C@@H]1[C@@H](N)C=C(C(=O)O)O[C@H]1C(=O)N(C)C [(2R,3R,4S)-4-amino-2-(dimethylcarbamoyl)-3-acetamido-3,4-dihydro-2H-pyran-6-carboxylic acid] | 2400 nM
CCCCN(CCC)C(=O)[C@@H]1OC(C(=O)O)=C[C@H](N)[C@H]1NC(C)=O [(2R,3R,4S)-4-amino-2-[butyl(propyl)carbamoyl]-3-acetamido-3,4-dihydro-2H-pyran-6-carboxylic acid] | 4 nM
CCCCCCCCCN(CCC)C(=O)[C@@H]1OC(C(=O)O)=C[C@H](N)[C@H]1NC(C)=O [(2R,3R,4S)-4-amino-3-acetamido-2-[nonyl(propyl)carbamoyl]-3,4-dihydro-2H-pyran-6-carboxylic acid] | 23 nM
